Pooled drug test results. Numbers come from NIAID ChemDB, via PubChem.

Common to all: target-level tests

a–b is a range or a potency band.

SMILES,tested at,read-out,protein,species,method,strain,value
c1cc(OCc2ccncc2)cc(-c2cnc3c(-c4nn[nH]n4)cnn3c2C2CCCCC2)c1,,IC50,RNA-dependent RNA polymerase,Hepatitis C virus,,,1–10 µM
CCCN(NC(=O)[C@H]1C[C@@H](OCc2ccccc2)CN1C(=O)[C@@H](NC(=O)[C@@H](OC(=O)[C@@H](CC(=O)O)NC(=O)[C@H](CC(=O)O)NC(C)=O)[C@H](C)CC)C(C)C)C(=O)NC1CCc2ccccc21,,IC50,Serine protease,Hepatitis C virus,,,0.1 µM
CCOC(=O)c1cnn2c(C)cc(-c3ccccc3)nc12,,IC50,RNA-dependent RNA polymerase,Hepatitis C virus,,,>10 µM
O=C(Nc1ccc2cn[nH]c2c1)c1cc(NCCc2ccccn2)c(F)cc1F,1 µg/mL,inhibition,Reverse transcriptase,Hepatitis B virus,,,68%
CC(=O)c1ccc2c(C3CCCCC3)c(-c3ccc4nc(-c5sc(C)nc5C)ccc4c3)n(CC(=O)N3CCOCC3)c2c1,,IC50,NS5B,Hepatitis C virus,luciferase,1b,0.12 µM
CCC[C@]1(CC(=O)O)OCCc2c1[nH]c1c(C)ccc(C#N)c21,,IC50,NS5B polymerase,Hepatitis C virus,,BK (genotype 1B),0.3 µM
CC(=O)N[C@@H](CC(=O)O)C(=O)N[C@@H](C(=O)N[C@H](C(=O)N[C@@H](CCC(=O)O)C(=O)N[C@@H](CC1CCCCC1)C(=O)N[C@@H](CS)C(=O)C(=O)O)C(c1ccccc1)c1ccccc1)c1ccccc1,,Ki,NS3/NS4A serine protease,Hepatitis C virus,,,2.2 µM
O=C(O)c1cc2nc(-c3ccccc3)c(-c3ccc(Oc4ccccc4)cc3)c(=O)n2[nH]1,,IC50,RNA-dependent RNA polymerase,Hepatitis C virus,,,>10 µM
CC[C@H](NC(=O)[C@@H]1C[C@@H](Oc2cc(-c3ccccc3)nc3cc(OC)ccc23)C[C@H]1C(=O)N[C@H](C(=O)N[C@H](C(=O)OC)C1CCCCC1)C(C)C)C(=O)O,10 µM,inhibition,NS3 protease,Hepatitis C virus,,,65%
CC(=O)N[C@@H](CC(=O)O)C(=O)N[C@H](CC(C(=O)O)C(=O)O)C(=O)N[C@H](C(=O)N[C@@H](CCC(=O)O)C(=O)N[C@@H](CC1CCCCC1)C(=O)N[C@@H](CS)C(=O)C(=O)O)C(C)(C)C,,Ki,NS3/NS4A serine protease,Hepatitis C virus,,,0.02 µM
O=C(O)c1cc2nc(-c3ccc(Cl)cc3)cc(Nc3ccccc3)n2n1,,IC50,RNA-dependent RNA polymerase,Hepatitis C virus,,,>10 µM
CC(C)(C)c1ccc(/C=C2\Oc3cccc(O)c3C2=O)cc1,20 µM,inhibition,HCV NS5B delta21,Hepatitis C virus,FRET,J4 genotype 1B,61%
Nc1nc(=O)c2ncn(COCCO)c2c(=O)[nH]1,,IC50,Nonstructural protein 3 NTPase/helicase,Hepatitis C virus,helicase activity,,>500 µM
COc1ccc2cc(OC[C@@H]3C[C@H]4C(=O)N(C)CCCC/C=C/[C@@H]5C[C@@]5(C(=O)O)NC(=O)N34)c(-c3nc(C(C)C)cs3)nc2c1Cl,,IC50,Nonstructural protein 3/4A,Hepatitis C virus,FRET,,<1 µM
Nc1nc2c(ncn2CC[C@H](CO)COP(=O)(O)OP(=O)(O)OP(=O)(O)O)c(=O)[nH]1,,Ki,DNA polymerase,Hepatitis B virus,,,0.03 µM
CN(C)CCNc1cc(C(=O)Nc2ccc3[nH]ncc3c2)c(F)cc1F,0.01 µg/mL,inhibition,Reverse transcriptase,Hepatitis B virus,,,48%
O=C(C1CCCC1)N1CCC2(CCCN(c3ncc(-c4ccccc4)c(-c4ccc(Cl)cc4)n3)C2)CC1,,IC50,Nonstructural protein 4B,Hepatitis C virus,radioligand binding / binding,,0.061 µM
O=C(CCCCCCCCCCC(=O)Nc1ccc(-c2nc3ccccc3[nH]2)cc1)Nc1ccc(-c2nc3ccccc3[nH]2)cc1,,IC50,Nonstructural protein 3 NTPase/helicase,Hepatitis C virus,,,0.7 µM
Nc1nc2c(ncn2CC[C@@H](CO)COP(=O)(O)OP(=O)(O)OP(=O)(O)O)c(=O)[nH]1,,Ki,DNA polymerase,Hepatitis B virus,,,0.04 µM
CC(=O)N1CCN(c2c(-c3ccc(OCc4ccccc4)cc3)cnc3c(-c4nn[nH]n4)cnn23)CC1,,IC50,RNA-dependent RNA polymerase,Hepatitis C virus,,,>10 µM
O=C(c1ccccc1)N1CCC2(CCCN(c3ncc(-c4ccccc4)c(-c4ccc(Cl)cc4)n3)C2)CC1,,IC50,Nonstructural protein 4B,Hepatitis C virus,radioligand binding / binding,,0.0458 µM
O=C(Nc1ccc2[nH]ncc2c1)c1cc(NCCN2CCOCC2)c(F)cc1F,,IC50,Reverse transcriptase,Hepatitis B virus,,,0.01–0.1 µg/mL
O=C(O)CCC(=O)ON[C@H](CC(C(=O)O)C(=O)O)C(=O)N[C@H](C(=O)N[C@@H](CCC(=O)O)C(=O)N[C@@H](CC1CCCCC1)C(=O)N[C@@H](CS)C(=O)C(=O)O)C(c1ccccc1)c1ccccc1,,Ki,NS3/NS4A serine protease,Hepatitis C virus,,,0.02 µM
Cc1cc2c(cc1F)c(C#N)c(-c1ccc(S(=O)(=O)N[C@@H](C)C(F)(F)F)cn1)n2-c1ncccn1,,IC50,Nonstructural protein 4B,Hepatitis C virus,PCR,1b,>1 µM
O=C(Nc1ccc2cn[nH]c2c1)c1cc(NCCO)c(F)cc1F,0.1 µg/mL,inhibition,Reverse transcriptase,Hepatitis B virus,,,40%
CC(=O)N[C@@H](CCC(=O)O)C(=O)N[C@H](CC(C(=O)O)C(=O)O)C(=O)N[C@H](C(=O)N[C@@H](CCC(=O)O)C(=O)N[C@@H](CC1CCCCC1)C(=O)N[C@@H](CS)C(=O)C(=O)O)C(c1ccccc1)c1ccccc1,,Ki,NS3/NS4A serine protease,Hepatitis C virus,,,0.014 µM
O=C(Nc1ccc2[nH]ncc2c1)c1cc(NCCO)c(F)cc1F,,IC50,Reverse transcriptase,Hepatitis B virus,,,0.1–1 µg/mL
COc1ccccc1-c1cc(-c2cccc(Cl)c2)nc2cc(C(=O)O)nn12,,IC50,RNA-dependent RNA polymerase,Hepatitis C virus,,,>10 µM
CC(=O)N[C@@H](CC(=O)O)C(=O)N[C@H](CC(C(=O)O)C(=O)O)C(=O)N[C@H](C(=O)N[C@@H](CCC(=O)O)C(=O)N[C@@H](CC(=O)O)C(=O)N[C@@H](CS)C(=O)C(=O)O)C(c1ccccc1)c1ccccc1,,Ki,NS3/NS4A serine protease,Hepatitis C virus,,,0.00005 µM
CN(C)CCNC(=O)c1cc2nccc(-c3ccc(-c4ccccc4)cc3)n2n1,,IC50,RNA-dependent RNA polymerase,Hepatitis C virus,,,>10 µM
CCC[C@H](NC(=O)[C@@H]1C[C@@H](Oc2cc(-c3ccccc3)nc3cc(OC)ccc23)C[C@H]1C(=O)N[C@@H](C(=O)N[C@H](C(=O)OC)C1CCCCC1)C(C)C)C(=O)O,10 µM,inhibition,NS3 protease,Hepatitis C virus,,,35%
O=C(NCCO)c1cnn2c(C3CCCCC3)c(-c3ccc(OCc4ccccc4)cc3)cnc12,,IC50,RNA-dependent RNA polymerase,Hepatitis C virus,,,1–10 µM
CCCCc1ccc(/C=C2\Oc3cccc(O)c3C2=O)cc1,20 µM,inhibition,HCV NS5B delta21,Hepatitis C virus,FRET,J4 genotype 1B,42%

2 of the rows above, restated:

SMILES | tested at | read-out | protein | species | method | strain | value
O=C(Nc1ccc2cn[nH]c2c1)c1cc(NCCO)c(F)cc1F | 0.1 µg/mL | inhibition | Reverse transcriptase | Hepatitis B virus |  |  | 40%
COc1ccc2cc(OC[C@@H]3C[C@H]4C(=O)N(C)CCCC/C=C/[C@@H]5C[C@@]5(C(=O)O)NC(=O)N34)c(-c3nc(C(C)C)cs3)nc2c1Cl |  | IC50 | Nonstructural protein 3/4A | Hepatitis C virus | FRET |  | <1 µM

Inhibition is in % at the dose shown (toxicity tests: loss of growth or viability). ICn is the concentration giving n% inhibition. An empty or dashed field is not shown. Lines come from different laboratories, so protocols vary.